Anti-infective test results gathered from many reports (values: NIAID ChemDB through PubChem).

Common to all: whole-cell or culture tests; agent: Candida albicans; endpoint: MIC

An empty or dashed field is not shown.

COc1ccc(-c2cc(-c3ccc(F)cc3)nc(NC(=O)CN3CCOCC3)n2)cc1 ; value: 50 µg/mL
Nc1ncnc2c1SC1=NC3=C(C(=O)CCC3)C(c3ccc(F)cc3)N12 ; strain or isolate: Robin Berkho (AUCC-1720) ; value: >40 µg/mL
CCCC(=O)/C=C1\Sc2ccccc2N1/C1=C/CCCCCCCCCC1 ; strain or isolate: ATCC 14053 ; value: >100 µg/mL
Fc1ccc(OCCC(Cn2ccnc2)c2ccc(Cl)cc2Cl)cc1 ; value: 10 µg/mL
C[C@H]1[C@H](O)[C@@H](C)/C=C/C=C/C=C/C=C/C=C/C=C/C=C/[C@H](O[C@@H]2O[C@H](C)[C@@H](O)[C@H](N)[C@@H]2O)C[C@@H]2O[C@](O)(C[C@@H](O)C[C@@H](O)CC[C@H](O)[C@@H](O)C[C@@H](O)CC(=O)O[C@H]1C)C[C@H](O)[C@H]2C(=O)O ; strain or isolate: ATCC11651 ; value: 1.56 µg/mL
O=C(CC(=O)C(F)(F)F)c1ccccc1 ; value: >50 µg/mL
Clc1ccc(OCC(Cn2ccnc2)c2ccc(Cl)cc2Cl)c(Cl)c1 ; value: >100 µg/mL
OCCCn1sc2ccccc2c1=S ; value: 15 µg/mL
Cc1ccc(S(=O)(=O)N/N=C2\CC3C(CC[C@]4(C)[C@@H]([C@H](C)CCCC(C)C)CC[C@@H]34)[C@@]3(C)CC[C@H](O)CC23)cc1 ; strain or isolate: CIP 1180-79 ; value: 25 µg/mL
COc1ccc2cc3[n+](cc2c1OC)CCc1cc2c(cc1-3)OCO2 ; strain or isolate: ATCC11651 ; value: 250 µg/mL
CC(CO)(CO)n1sc2ccccc2c1=O ; value: 5 µg/mL
Cc1ccc(NC(=O)c2ncccc2O)cc1 ; strain or isolate: ATCC 44859 ; value: 125 µM
CCCCCCCCCCCCCC[C@H](N)C(=O)N[C@H](C(=O)O)C1O[C@@H](n2ccc(=O)[nH]c2=O)[C@H](O)[C@@H]1O ; strain or isolate: 124 (nikkomycin-S) ; value: >320 µg/mL
O=C1CCCC2=C1C(c1ccc(F)cc1)N1C(=N2)Sc2c1nn[nH]c2=O ; strain or isolate: Robin Berkho (AUCC-1720) ; value: >40 µg/mL
Clc1ccc(C(Cn2ccnc2)OCc2csc3c(Cl)cccc23)c(Cl)c1 ; strain or isolate: 15 strains ; value: 2 µg/mL
CCCCCCCCCCCCCCCCCC1=NCCCC1 ; strain or isolate: ATCC 90028 ; value: 20 µg/mL
CCCCCCC(=O)/C=C1\Sc2ccccc2N1C1=CCCCCC1 ; strain or isolate: ATCC 10231 ; value: >100 µg/mL
Clc1ccc(OCCCC(Cn2ccnc2)c2ccc(Cl)cc2Cl)cc1 ; value: >100 µg/mL
CC(C)CCC[C@@H](C)[C@H]1CC[C@H]2C3/C(=N/N)C=C4C[C@@H](O)CC[C@]4(C)C3CC[C@]12C ; strain or isolate: CIP 1180-79 ; value: 25 µg/mL
Cc1nc2c(c(=O)[nH]1)SC1=NC3=C(C(=O)CCC3)C(c3ccc(F)cc3)N12 ; strain or isolate: Robin Berkho (AUCC-1720) ; value: >40 µg/mL
CCCC(=O)/C=C1\Sc2cc(F)ccc2N1C1=CCCCCC1 ; strain or isolate: ATCC 14053 ; value: ≥100 µg/mL
O=C(Nc1ccc(F)cc1)c1ccccc1O ; strain or isolate: ATCC 44859 ; value: 125 µM
CCCCCCCCCCCCCCCCCCC1=NCCCC1 ; strain or isolate: ATCC 90028 ; value: 20 µg/mL
CSC1=NC2=C(C(=O)CCC2)C(c2ccc(F)cc2)N1C ; strain or isolate: Robin Berkho (AUCC-1720) ; value: >40 µg/mL
O=C(Nc1ccc(Cl)cc1)c1ccccc1O ; strain or isolate: ATCC 44859 ; value: 62.5 µM
CC(N(C)C)C(O)(Cn1cncn1)c1ccc(F)cc1F ; strain or isolate: KC-03 ; value: 0.2 µg/mL
N#CC1=C(N)N2C(=NC3=C(C(=O)CCC3)C2c2ccc(F)cc2)S1 ; strain or isolate: Robin Berkho (AUCC-1720) ; value: 40 µg/mL
CC(C)C(=O)/C=C1/Sc2ccccc2N1Cc1ccccc1 ; strain or isolate: ATCC 14053 ; value: ≥100 µg/mL
O=C1CCCC2=C1C(c1ccc(F)cc1)N1C(=N2)Sc2c1nc[nH]c2=O ; strain or isolate: Robin Berkho (AUCC-1720) ; value: >40 µg/mL
CC(C)CCC[C@@H](C)[C@H]1CC[C@H]2C3C/C(=N\Nc4ccccc4)C4C[C@@H](O)CC[C@]4(C)C3CC[C@]12C ; strain or isolate: CIP 1180-79 ; value: 12.5 µg/mL
O=C(/C=C1\Sc2ccccc2N1C1CCCCCC1)c1ccccc1 ; strain or isolate: ATCC 10231 ; value: 50 µg/mL
CC(C)N=C(N)c1ccc2nc(-c3ccc4c(c3)Cc3cc(-c5nc6ccc(C(N)=NC(C)C)cc6[nH]5)ccc3-4)[nH]c2c1 ; strain or isolate: A39 ; value: 0.78 µg/mL
CC(C)(CO)n1sc2ccccc2c1=S ; value: 20 µg/mL
COc1ccc2c(c1)S/C(=C\C(=O)C(C)C)N2C1=CCCCCC1 ; strain or isolate: ATCC 10231 ; value: >100 µg/mL
O=C1CCCC2=C1C(c1ccc(F)cc1)NC(=S)N2 ; strain or isolate: Robin Berkho (AUCC-1720) ; value: >40 µg/mL
CCCCCOc1ccc(-c2cc(-c3ccc(C(=O)N[C@H]4C[C@@H](O)[C@@H](O)NC(=O)[C@@H]5[C@@H](O)[C@@H](C)CN5C(=O)[C@H]([C@H](O)CC(N)=O)NC(=O)[C@H]([C@H](O)[C@@H](O)c5ccc(O)c(OS(=O)(=O)O)c5)NC(=O)[C@@H]5C[C@@H](O)CN5C(=O)[C@H]([C@@H](C)O)NC4=O)cc3)no2)cc1 ; strain or isolate: 16010 ; value: 0.0078 µg/mL
Fc1ccc(OCCCC(Cn2ccnc2)c2ccc(Cl)cc2Cl)cc1 ; value: >100 µg/mL
Cc1ccc(S(=O)(=O)N/N=C2/C=C3C[C@@H](O)CC[C@]3(C)C3CC[C@]4(C)[C@@H]([C@H](C)CCCC(C)C)CC[C@H]4C23)cc1 ; strain or isolate: CIP 1663-86 ; value: 1.5 µg/mL
Oc1ccc(Cl)c2ccc(Cl)nc12 ; strain or isolate: ATCC 60193 ; value: 12 µg/mL
Clc1ccc(OCC(Cn2ccnc2)c2ccc(Cl)cc2Cl)cc1 ; value: 10 µg/mL
CCC(=O)/C=C1\Sc2ccccc2N1C1CCCCCCC1 ; strain or isolate: ATCC 10231 ; value: >100 µg/mL
Clc1ccc(C(CCOc2ccc(Br)cc2)Cn2ccnc2)c(Cl)c1 ; value: <10 µg/mL
Cc1ccc(S(=O)(=O)N/N=C2\CC[C@@]3(C)C(=C/C(=N/NS(=O)(=O)c4ccc(C)cc4)C4C3CC[C@]3(C)[C@@H]([C@H](C)CCCC(C)C)CC[C@@H]43)C2)cc1 ; strain or isolate: CIP 1663-86 ; value: 25 µg/mL
O=C(Nc1cccc(Cl)c1)c1ncccc1O ; strain or isolate: ATCC 44859 ; value: 62.5 µM
Clc1ccc(C(CCOc2ccccc2Br)Cn2ccnc2)c(Cl)c1 ; value: >100 µg/mL
Cc1ccc(S(=O)(=O)N/N=C2/CC3C/C(=N/NS(=O)(=O)c4ccc(C)cc4)CC[C@]3(C)C3CC[C@]4(C)[C@@H]([C@H](C)CCCC(C)C)CC[C@H]4C23)cc1 ; strain or isolate: CIP 1180-79 ; value: >50 µg/mL
C[C@H]1[C@H](O)[C@@H](C)/C=C/C=C/C=C/C=C/C=C/C=C/C=C/[C@H](O[C@@H]2O[C@H](C)[C@@H](O)[C@H](N)[C@@H]2O)C[C@@H]2O[C@](O)(C[C@@H](O)C[C@@H](O)CC[C@H](O)[C@@H](O)C[C@@H](O)CC(=O)O[C@H]1C)C[C@H](O)[C@H]2C(=O)O ; strain or isolate: MY1055 ; value: 0.5 µg/mL
OCCCN=c1ssc2ccccc12 ; value: 15 µg/mL
CCC(=O)/C=C1\Sc2ccccc2N1C1CCCCCC1 ; strain or isolate: ATCC 10231 ; value: 50 µg/mL
CC(O)Cn1sc2ccccc2c1=O ; value: 20 µg/mL
CCCCN1C(=O)C2(CCN(Cc3ccccc3)CC2=O)Sc2ccccc21 ; strain or isolate: ATCC 14053 ; value: ≥100 µg/mL
CC(N1CCCCC1)C(O)(Cn1cncn1)c1ccc(F)cc1F ; strain or isolate: KC-03 ; value: 0.05 µg/mL

The first 7 rows once more:

structure,strain or isolate,value
COc1ccc(-c2cc(-c3ccc(F)cc3)nc(NC(=O)CN3CCOCC3)n2)cc1,,50 µg/mL
Nc1ncnc2c1SC1=NC3=C(C(=O)CCC3)C(c3ccc(F)cc3)N12,Robin Berkho (AUCC-1720),>40 µg/mL
CCCC(=O)/C=C1\Sc2ccccc2N1/C1=C/CCCCCCCCCC1,ATCC 14053,>100 µg/mL
Fc1ccc(OCCC(Cn2ccnc2)c2ccc(Cl)cc2Cl)cc1,,10 µg/mL
C[C@H]1[C@H](O)[C@@H](C)/C=C/C=C/C=C/C=C/C=C/C=C/C=C/[C@H](O[C@@H]2O[C@H](C)[C@@H](O)[C@H](N)[C@@H]2O)C[C@@H]2O[C@](O)(C[C@@H](O)C[C@@H](O)CC[C@H](O)[C@@H](O)C[C@@H](O)CC(=O)O[C@H]1C)C[C@H](O)[C@H]2C(=O)O,ATCC11651,1.56 µg/mL
O=C(CC(=O)C(F)(F)F)c1ccccc1,,>50 µg/mL
Clc1ccc(OCC(Cn2ccnc2)c2ccc(Cl)cc2Cl)c(Cl)c1,,>100 µg/mL

Lines come from different laboratories, so protocols vary.